Experimental data: patent US10962529B1 (priority 2020, dated 2021)
Like-named read-outs stand apart in the source and are kept apart here.

System: SARS-COV-2 live virus (protease)
Assay: Real-time fluorescence kinetics and detection limit of FRET substrate with live virus
Format: biochemical

Q: For FITC-Ahx-H-d-K(Dabcyl), which “Limit of detection (LOD), 3SD/m from calibration plot” value (from here on “Limit of detection (LOD), 3SD/m”) is on record?
A: 9±3 pfu/ml

Q: And the “Limit of detection (LOD), 3SD/m” value (listed as FITC-Ahx-H-d-(Dabcyl))?
A: 9±3 pfu/ml

Q: What about the “Limit of detection (LOD), 3SD/m” value (listed as H-d) of the same substance?
A: 9.7±3 pfu/ml
